## PSTVd loop 6 mutant pool in Nicotiana benthamiana

From the data files of Wu et al. 2024, doi:10.1371/journal.ppat.1012142.

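A pool of all variants was put on leaves of three Nicotiana benthamiana plants. Samples came from the inoculated region at 5 days, the leaf margin at 10 and upper systemic leaves at 12.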

Region: loop 6 of PSTVd (intermediate strain), upper and lower strand joined, each 5' to 3', the first 5 letters being the upper strand, closing pairs included. Wild type: UGACCGCGAG. Varied positions (N): UNNNCGNNNG.

Values are reads per thousand in the sample; higher means more abundant, 0 means not found. Each value is the mean of three plants. "Pool" is the share in the plasmid pool used as inoculum, on the same scale. The inoculated region was read from the minus strand, the other sites from the plus strand.

| # | sequence | pool | inoculated region | leaf margin | systemic leaves |
|---|---|---|---|---|---|
| 1 | GGACCGACCG | 0.0131 | 0.0181 | 0 | 0 |
| 2 | UAACCGGCGG | 0.209 | 0.0836 | 0 | 0 |
| 3 | UAAGCGCAUG | 0.170 | 0.0766 | 0.0261 | 0 |
| 4 | UAAUCGAUUG | 0.379 | 0.101 | 0.00773 | 0 |
| 5 | UAAUCGGAAG | 0.183 | 0.639 | 0.124 | 0 |
| 6 | UACCCGUGUG | 0.288 | 0.124 | 0.0155 | 0 |
| 7 | UACCCUCGAG | 0.0261 | 0 | 0 | 0 |
| 8 | UACGCGACCG | 0.118 | 0.0714 | 0 | 0 |
| 9 | UACGCGCAAG | 0.157 | 0.121 | 0.00773 | 0 |
| 10 | UAGACGUGAG | 0.157 | 0.0900 | 0.00773 | 0 |
| 11 | UAGUCGAAGG | 0.170 | 0.0771 | 0.0169 | 0 |
| 12 | UAGUCGAAUG | 0.340 | 0.125 | 0 | 0 |
| 13 | UCAACACGGG | 0.0131 | 0 | 0 | 0 |
| 14 | UCAACGAUCG | 0.209 | 0.0599 | 0.00920 | 0 |
| 15 | UCACCGGUUG | 0.170 | 0.0894 | 0 | 0 |
| 16 | UCAGCGUGCG | 0.144 | 0.126 | 0 | 0 |
| 17 | UCCUCGGGAG | 0.157 | 0.101 | 0 | 0 |
| 18 | UCUACGUAGG | 0.196 | 0.154 | 0.0460 | 0 |
| 19 | UCUUCGCGAG | 0.340 | 0.520 | 0.737 | 0.0547 |
| 20 | UCUUCGGGAG | 0.183 | 0.144 | 0 | 0.0531 |
| 21 | UGAACGUUAG | 0.379 | 0.794 | 0.0522 | 0 |
| 22 | UGACCGGCAG | 0.235 | 0.131 | 0.221 | 0.0944 |
| 23 | UGACCGGUCG | 0.431 | 0.205 | 0.257 | 0.132 |
| 24 | UGAUCGUGUG | 0.353 | 0.154 | 0.0155 | 0 |
| 25 | UGCACGGAAG | 0.118 | 0.584 | 0.0491 | 0 |
| 26 | UGGGCGACAG | 0.196 | 0.108 | 0 | 0 |
| 27 | UGGGCGAUCG | 0.288 | 0.0896 | 0 | 0 |
| 28 | UGGGCGGGUG | 0.105 | 0.0892 | 0 | 0.0202 |
| 29 | UGUGCGUACG | 0.248 | 0.119 | 0 | 0 |
| 30 | UGUUCGAAAG | 0.183 | 0.101 | 0 | 0 |
| 31 | UGUUCGCGAU | 0.0131 | 0.0547 | 0.0247 | 0 |
| 32 | UUACCGGCUG | 0.275 | 0.107 | 0.0169 | 0.00684 |
| 33 | UUCGCGCUCG | 0.118 | 0.113 | 0.00920 | 0 |
| 34 | UUCUCGUUCG | 0.261 | 0.0592 | 0.00920 | 0.00684 |
| 35 | UUCUCGUUUG | 0.288 | 0.131 | 0 | 0 |
| 36 | UUGCCGGCAG | 0.209 | 0.0891 | 0 | 0 |
| 37 | UUGUCGAGAG | 0.431 | 0.119 | 0.0323 | 0 |
| 38 | UUGUCGAUCG | 0.340 | 0.0771 | 0 | 0 |
| 39 | UUGUCUUUUG | 0.0131 | 0 | 0 | 0 |
| 40 | UUUGCGGAGG | 0.131 | 0.0708 | 0.0184 | 0 |

Samples held 36,220 to 57,551 reads, so the smallest values rest on one or two reads. For reference, wild type rose from 20.7 per thousand in the pool to 195, 198, 203 (inoculated region), 629, 591, 734 (leaf margin) and 942, 870, 868 (systemic leaves). Sequences that differ at fixed positions probably stem from PCR or sequencing errors, and defective variants can be carried along by functional ones.